{
  "sequences": {"note": "Amino acid sequences for entries named in this document (tags omitted).", "UniProt P35499, whole entry, looked up": "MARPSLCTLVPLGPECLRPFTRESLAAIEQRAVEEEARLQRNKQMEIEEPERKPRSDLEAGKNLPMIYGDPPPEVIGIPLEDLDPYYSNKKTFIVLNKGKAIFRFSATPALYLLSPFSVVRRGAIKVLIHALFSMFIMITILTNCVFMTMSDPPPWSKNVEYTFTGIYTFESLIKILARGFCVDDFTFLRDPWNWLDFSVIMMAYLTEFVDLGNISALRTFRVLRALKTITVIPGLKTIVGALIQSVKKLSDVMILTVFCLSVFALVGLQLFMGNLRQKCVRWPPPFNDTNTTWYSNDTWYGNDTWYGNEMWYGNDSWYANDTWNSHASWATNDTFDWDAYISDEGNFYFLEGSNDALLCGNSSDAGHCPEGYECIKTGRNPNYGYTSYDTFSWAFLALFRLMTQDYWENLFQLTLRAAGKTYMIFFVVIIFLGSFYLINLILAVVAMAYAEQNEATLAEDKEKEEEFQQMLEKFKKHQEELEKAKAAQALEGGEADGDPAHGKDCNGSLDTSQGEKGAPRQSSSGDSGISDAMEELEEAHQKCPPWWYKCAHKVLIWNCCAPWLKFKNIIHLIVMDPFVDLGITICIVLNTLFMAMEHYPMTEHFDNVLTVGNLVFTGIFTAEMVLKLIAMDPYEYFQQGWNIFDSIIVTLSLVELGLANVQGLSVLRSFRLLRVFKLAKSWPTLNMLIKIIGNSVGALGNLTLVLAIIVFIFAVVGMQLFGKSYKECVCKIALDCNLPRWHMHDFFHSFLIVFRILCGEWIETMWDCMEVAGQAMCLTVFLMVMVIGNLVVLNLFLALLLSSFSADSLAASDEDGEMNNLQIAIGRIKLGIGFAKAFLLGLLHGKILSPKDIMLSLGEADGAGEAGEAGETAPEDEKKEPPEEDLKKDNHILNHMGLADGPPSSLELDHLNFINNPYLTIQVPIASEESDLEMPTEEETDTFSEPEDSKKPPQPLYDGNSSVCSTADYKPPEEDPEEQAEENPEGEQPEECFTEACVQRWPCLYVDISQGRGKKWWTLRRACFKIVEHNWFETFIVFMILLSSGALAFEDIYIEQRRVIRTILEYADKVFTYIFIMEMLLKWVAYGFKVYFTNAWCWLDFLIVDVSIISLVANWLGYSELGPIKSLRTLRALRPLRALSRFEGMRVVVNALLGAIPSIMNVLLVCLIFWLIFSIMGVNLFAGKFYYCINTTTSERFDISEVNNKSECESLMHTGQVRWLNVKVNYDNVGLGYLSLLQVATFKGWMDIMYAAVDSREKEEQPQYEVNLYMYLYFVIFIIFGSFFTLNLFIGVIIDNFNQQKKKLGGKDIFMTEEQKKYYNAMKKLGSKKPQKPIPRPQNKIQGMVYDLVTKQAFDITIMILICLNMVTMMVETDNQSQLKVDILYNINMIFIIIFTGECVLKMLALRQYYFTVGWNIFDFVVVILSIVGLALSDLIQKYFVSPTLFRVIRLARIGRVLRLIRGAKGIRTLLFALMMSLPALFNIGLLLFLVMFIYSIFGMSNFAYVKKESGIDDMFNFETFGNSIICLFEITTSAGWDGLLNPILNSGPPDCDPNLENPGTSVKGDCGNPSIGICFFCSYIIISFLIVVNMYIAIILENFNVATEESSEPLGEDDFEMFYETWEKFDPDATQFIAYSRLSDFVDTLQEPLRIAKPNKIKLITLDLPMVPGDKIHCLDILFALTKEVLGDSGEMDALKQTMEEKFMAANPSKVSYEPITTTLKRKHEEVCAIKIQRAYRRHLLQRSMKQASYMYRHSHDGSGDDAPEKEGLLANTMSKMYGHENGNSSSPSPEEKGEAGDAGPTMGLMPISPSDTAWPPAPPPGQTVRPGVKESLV", "UniProt Q99250, whole entry, looked up": "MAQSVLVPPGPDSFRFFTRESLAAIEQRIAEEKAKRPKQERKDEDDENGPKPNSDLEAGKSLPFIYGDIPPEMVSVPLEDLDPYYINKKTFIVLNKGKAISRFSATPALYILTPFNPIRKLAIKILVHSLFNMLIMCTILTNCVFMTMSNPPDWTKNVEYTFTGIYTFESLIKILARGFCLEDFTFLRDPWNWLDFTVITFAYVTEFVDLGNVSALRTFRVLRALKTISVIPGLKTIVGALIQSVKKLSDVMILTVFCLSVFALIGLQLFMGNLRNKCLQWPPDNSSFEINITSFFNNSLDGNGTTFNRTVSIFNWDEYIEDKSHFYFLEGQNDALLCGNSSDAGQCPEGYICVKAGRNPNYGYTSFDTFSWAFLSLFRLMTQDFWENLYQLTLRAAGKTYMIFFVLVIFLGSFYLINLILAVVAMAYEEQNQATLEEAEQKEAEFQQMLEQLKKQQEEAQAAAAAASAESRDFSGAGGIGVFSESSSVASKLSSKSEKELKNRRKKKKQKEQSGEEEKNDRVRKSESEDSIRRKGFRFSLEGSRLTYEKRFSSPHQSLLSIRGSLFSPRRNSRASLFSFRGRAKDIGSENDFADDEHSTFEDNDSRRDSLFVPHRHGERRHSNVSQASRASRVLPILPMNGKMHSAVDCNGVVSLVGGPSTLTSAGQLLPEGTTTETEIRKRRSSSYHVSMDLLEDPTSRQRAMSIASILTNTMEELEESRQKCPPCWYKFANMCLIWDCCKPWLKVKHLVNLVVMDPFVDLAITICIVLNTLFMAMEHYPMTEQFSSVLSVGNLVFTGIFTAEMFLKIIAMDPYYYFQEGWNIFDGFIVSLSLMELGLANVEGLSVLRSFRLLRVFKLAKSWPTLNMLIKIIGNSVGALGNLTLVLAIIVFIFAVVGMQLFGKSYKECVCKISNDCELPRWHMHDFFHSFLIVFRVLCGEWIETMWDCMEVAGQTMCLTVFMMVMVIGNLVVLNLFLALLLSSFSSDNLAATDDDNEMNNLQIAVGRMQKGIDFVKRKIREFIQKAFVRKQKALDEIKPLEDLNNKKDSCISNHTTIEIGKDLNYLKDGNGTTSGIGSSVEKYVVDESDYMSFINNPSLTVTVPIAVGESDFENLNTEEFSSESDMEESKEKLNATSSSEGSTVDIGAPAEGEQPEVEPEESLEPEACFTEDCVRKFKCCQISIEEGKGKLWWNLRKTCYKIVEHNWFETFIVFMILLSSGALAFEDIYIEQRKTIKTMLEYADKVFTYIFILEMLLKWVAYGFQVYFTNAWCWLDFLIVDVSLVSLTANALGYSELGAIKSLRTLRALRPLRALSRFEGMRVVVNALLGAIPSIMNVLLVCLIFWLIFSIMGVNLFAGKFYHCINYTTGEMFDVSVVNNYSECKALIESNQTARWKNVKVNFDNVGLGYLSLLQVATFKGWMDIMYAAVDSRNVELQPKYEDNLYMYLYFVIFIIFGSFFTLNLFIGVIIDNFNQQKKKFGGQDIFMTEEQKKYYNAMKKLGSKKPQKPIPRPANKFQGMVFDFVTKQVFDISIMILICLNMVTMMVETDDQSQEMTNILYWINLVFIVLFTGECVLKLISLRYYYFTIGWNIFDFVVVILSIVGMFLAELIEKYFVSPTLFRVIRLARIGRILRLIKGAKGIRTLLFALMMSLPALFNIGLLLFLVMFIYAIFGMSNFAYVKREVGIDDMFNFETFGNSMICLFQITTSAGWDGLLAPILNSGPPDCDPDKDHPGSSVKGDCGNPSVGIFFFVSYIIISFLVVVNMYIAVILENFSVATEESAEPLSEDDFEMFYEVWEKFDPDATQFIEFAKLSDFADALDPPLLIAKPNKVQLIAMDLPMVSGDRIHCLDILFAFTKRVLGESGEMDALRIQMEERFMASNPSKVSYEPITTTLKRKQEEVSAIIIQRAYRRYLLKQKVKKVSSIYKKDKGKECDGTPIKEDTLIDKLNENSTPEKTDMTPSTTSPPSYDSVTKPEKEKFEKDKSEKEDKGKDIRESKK", "UniProt Q9Y5Y9, whole entry, looked up": "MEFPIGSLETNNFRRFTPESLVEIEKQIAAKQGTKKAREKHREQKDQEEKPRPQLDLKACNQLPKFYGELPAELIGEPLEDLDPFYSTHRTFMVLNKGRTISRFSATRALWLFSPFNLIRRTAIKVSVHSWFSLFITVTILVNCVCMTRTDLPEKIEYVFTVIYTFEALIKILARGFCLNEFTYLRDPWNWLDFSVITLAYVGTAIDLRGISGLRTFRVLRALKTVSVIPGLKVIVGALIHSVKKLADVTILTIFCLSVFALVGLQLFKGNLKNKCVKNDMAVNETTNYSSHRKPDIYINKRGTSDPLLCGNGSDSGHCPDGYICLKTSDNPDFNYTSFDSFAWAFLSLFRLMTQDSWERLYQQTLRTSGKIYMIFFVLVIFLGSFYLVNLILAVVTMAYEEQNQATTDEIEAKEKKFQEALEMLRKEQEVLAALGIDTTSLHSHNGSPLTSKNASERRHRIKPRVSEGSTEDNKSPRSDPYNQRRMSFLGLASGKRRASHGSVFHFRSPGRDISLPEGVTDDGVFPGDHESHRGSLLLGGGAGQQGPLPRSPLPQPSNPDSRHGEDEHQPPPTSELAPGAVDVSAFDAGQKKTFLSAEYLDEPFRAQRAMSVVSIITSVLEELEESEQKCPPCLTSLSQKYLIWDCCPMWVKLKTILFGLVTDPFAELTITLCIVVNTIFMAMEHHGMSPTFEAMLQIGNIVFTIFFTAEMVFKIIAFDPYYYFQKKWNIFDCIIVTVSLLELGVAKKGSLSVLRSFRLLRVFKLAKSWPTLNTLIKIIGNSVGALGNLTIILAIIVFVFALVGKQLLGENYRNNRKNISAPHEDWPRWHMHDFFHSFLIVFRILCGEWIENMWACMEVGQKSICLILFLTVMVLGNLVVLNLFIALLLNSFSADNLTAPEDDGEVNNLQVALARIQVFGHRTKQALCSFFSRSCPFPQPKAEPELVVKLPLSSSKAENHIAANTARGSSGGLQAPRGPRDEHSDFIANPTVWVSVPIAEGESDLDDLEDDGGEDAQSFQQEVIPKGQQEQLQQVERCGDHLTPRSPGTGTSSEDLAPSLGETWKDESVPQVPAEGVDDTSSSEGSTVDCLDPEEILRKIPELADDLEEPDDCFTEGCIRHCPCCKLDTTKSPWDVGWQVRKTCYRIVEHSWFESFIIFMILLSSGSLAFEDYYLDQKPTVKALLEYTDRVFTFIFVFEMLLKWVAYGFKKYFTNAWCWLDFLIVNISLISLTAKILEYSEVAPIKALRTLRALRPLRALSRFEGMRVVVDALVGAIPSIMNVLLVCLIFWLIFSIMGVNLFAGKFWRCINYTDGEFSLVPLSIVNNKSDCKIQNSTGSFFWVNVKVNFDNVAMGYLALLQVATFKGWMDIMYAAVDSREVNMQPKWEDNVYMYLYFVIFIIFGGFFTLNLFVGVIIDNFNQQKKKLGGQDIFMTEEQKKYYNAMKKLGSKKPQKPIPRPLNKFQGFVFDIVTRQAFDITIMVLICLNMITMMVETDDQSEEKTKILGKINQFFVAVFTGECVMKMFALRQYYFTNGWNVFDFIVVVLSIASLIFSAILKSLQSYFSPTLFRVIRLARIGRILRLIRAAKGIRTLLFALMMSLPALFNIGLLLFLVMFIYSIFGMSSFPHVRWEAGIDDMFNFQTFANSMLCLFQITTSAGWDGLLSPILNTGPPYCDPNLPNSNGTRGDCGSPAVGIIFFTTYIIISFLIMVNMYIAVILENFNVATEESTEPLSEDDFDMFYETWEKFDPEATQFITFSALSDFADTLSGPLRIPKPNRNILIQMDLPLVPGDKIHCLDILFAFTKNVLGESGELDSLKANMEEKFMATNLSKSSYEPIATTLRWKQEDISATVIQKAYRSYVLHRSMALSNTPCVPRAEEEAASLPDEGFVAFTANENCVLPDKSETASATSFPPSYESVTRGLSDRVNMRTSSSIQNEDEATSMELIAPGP"},
  "source": "paper PMC10492761",
  "about": "“Identification of sodium channel toxins from marine cone snails of the subgenera Textilia and Afonsoconus” (2023)",
  "key": {"human NaV1.4": {"target": "human NaV1.4 (Homo sapiens, UniProt P35499)", "test": "Automated whole-cell patch-clamp, hNaV1.4", "settings": "for IC50: read-out: Potency (IC50) at NaV1.4, HEK293 cells, hNaV1.4 α + β1, QPatch16 II whole-cell patch-clamp, holding −90 mV, 50-ms pulse to −20 mV, 0.05 Hz, 5-min incubation per concentration, mean ± SEM"}, "human NaV1.7": {"target": "human NaV1.7 (Homo sapiens, UniProt Q15858)", "test": "Automated whole-cell patch-clamp, hNaV1.7", "settings": "read-out: Potency (IC50) at NaV1.7; HEK293 cells, hNaV1.7 α + β1; QPatch16 II whole-cell patch-clamp; holding −90 mV, 50-ms pulse to −20 mV, 0.05 Hz; 5-min incubation per concentration; mean ± SEM"}, "human NaV1.1": {"target": "human NaV1.1 (Homo sapiens, UniProt P35498)", "test": "Automated whole-cell patch-clamp, hNaV1.1", "settings": "read-out: Potency (IC50) at NaV1.1; HEK293 cells, hNaV1.1 α + β1; QPatch16 II whole-cell patch-clamp; holding −90 mV, 50-ms pulse to −20 mV, 0.05 Hz; 5-min incubation per concentration; mean ± SEM"}, "human NaV1.2": {"target": "human NaV1.2 (Homo sapiens, UniProt Q99250)", "test": "Automated whole-cell patch-clamp, hNaV1.2", "settings": "read-out: Potency (IC50) at NaV1.2; HEK293 cells, hNaV1.2 α + β1; QPatch16 II whole-cell patch-clamp; holding −90 mV, 50-ms pulse to −20 mV, 0.05 Hz; 5-min incubation per concentration; mean ± SEM"}, "human NaV1.8": {"target": "human NaV1.8 (Homo sapiens, UniProt Q9Y5Y9)", "test": "Automated whole-cell patch-clamp, hNaV1.8", "settings": "tested up to 10 µM"}, "human NaV1.5": {"target": "human NaV1.5 (Homo sapiens, UniProt Q14524)", "test": "Automated whole-cell patch-clamp, hNaV1.5"}},
  "data": [
    {"smiles": "CSCC[C@@H]1NC(=O)[C@H](CCC(N)=O)NC(=O)CNC(=O)[C@H](CC(N)=O)NC(=O)[C@@H]2CCCN2C(=O)[C@H](CCCCN)NC(=O)[C@@H]2CCCN2C(=O)[C@H](CCCNC(=N)N)NC(=O)[C@@H]2CSSC[C@@H]3NC(=O)[C@H](CCCNC(=N)N)NC(=O)[C@H](CO)NC(=O)[C@H](CC(N)=O)NC(=O)[C@H](CCCCN)NC(=O)[C@H](CCC(=O)O)NC(=O)[C@H](CSSC[C@H](NC(=O)[C@H](Cc4ccc(O)cc4)NC(=O)[C@H](CC(C)C)NC(=O)CNC(=O)[C@@H](N)C(C)C)C(=O)N2)NC(=O)[C@H](Cc2c[nH]c4ccccc24)NC(=O)[C@H](CCCNC(=N)N)NC(=O)[C@H](CC(=O)O)NC(=O)[C@H](CSSC[C@@H](C(N)=O)NC3=O)NC(=O)[C@H](CCSC)NC1=O", "values": [
      {"measurement": "IC50", "setting": "human NaV1.4", "result": "> 10000", "unit": "nM"},
      {"measurement": "Effect on hNaV1.4 current, in words", "setting": "human NaV1.4; tested up to 10 µM", "result": "no effect"},
      {"measurement": "IC50", "setting": "human NaV1.7", "result": "> 10000", "unit": "nM"}
    ]},
    {"smiles": "CC(C)C[C@@H]1NC(=O)[C@H](CCCNC(=N)N)NC(=O)[C@@H]2CCCN2C(=O)[C@H](CCCNC(=N)N)NC(=O)[C@@H]2CSSC[C@@H]3NC(=O)[C@H](CCCNC(=N)N)NC(=O)[C@H](CO)NC(=O)[C@H](Cc4c[nH]cn4)NC(=O)[C@H](CO)NC(=O)[C@H](CCCCN)NC(=O)[C@H](CSSC[C@H](NC(=O)[C@H](Cc4c[nH]cn4)NC(=O)[C@H](CCC(=O)O)NC(=O)CNC(=O)[C@@H](N)C(C)C)C(=O)N2)NC(=O)[C@H](Cc2c[nH]c4ccccc24)NC(=O)[C@H](CCCNC(=N)N)NC(=O)[C@H](CC(=O)O)NC(=O)[C@H](CSSC[C@@H](C(N)=O)NC3=O)NC(=O)[C@H](CCC(=O)O)NC(=O)[C@H](CCCNC(=N)N)NC(=O)[C@H](CCCCN)NC(=O)CNC(=O)[C@H](CCCNC(=N)N)NC(=O)[C@H](Cc2c[nH]c3ccccc23)NC(=O)[C@H](CC(C)C)NC(=O)[C@@H]2CCCN2C(=O)[C@H](CCCCN)NC(=O)[C@@H]2CCCN2C(=O)[C@H](CCCNC(=N)N)NC1=O", "values": [
      {"measurement": "IC50", "setting": "human NaV1.1", "result": 911, "unit": "nM"},
      {"measurement": "IC50", "setting": "human NaV1.2", "result": 643, "unit": "nM"},
      {"measurement": "IC50", "setting": "human NaV1.4", "result": 193, "unit": "nM"},
      {"measurement": "IC50", "setting": "human NaV1.7", "result": 633, "unit": "nM"}
    ]},
    {"smiles": "CC(C)[C@H](N)C(=O)NCC(=O)N[C@@H](CCC(=O)O)C(=O)N[C@@H](CCCNC(=N)N)C(=O)N[C@H]1CSSC[C@@H]2NC(=O)[C@H](Cc3c[nH]c4ccccc34)NC(=O)[C@H](CCCNC(=N)N)NC(=O)CNC(=O)[C@@H]3CSSC[C@@H](C(N)=O)NC(=O)[C@H](CSSC[C@H](NC1=O)C(=O)N[C@@H](CCCCN)C(=O)N[C@@H](CC(N)=O)C(=O)NCC(=O)N[C@@H](CCCCN)C(=O)N[C@@H](CCCNC(=N)N)C(=O)NCC(=O)N3)NC(=O)[C@H](CCCNC(=N)N)NC(=O)[C@H](CO)NC(=O)[C@H](Cc1c[nH]cn1)NC(=O)[C@H](CC(=O)O)NC(=O)[C@H](CCCNC(=N)N)NC2=O", "values": [
      {"measurement": "Activity at hNaV1.8, in words", "setting": "human NaV1.8", "result": "inactive"}
    ]},
    {"smiles": "CC(C)[C@H](N)C(=O)NCC(=O)N[C@@H](CCC(=O)O)C(=O)N[C@@H](CCCNC(=N)N)C(=O)N[C@H]1CSSC[C@@H]2NC(=O)[C@H](Cc3c[nH]c4ccccc34)NC(=O)[C@H](CCCNC(=N)N)NC(=O)CNC(=O)[C@@H]3CSSC[C@@H](C(N)=O)NC(=O)[C@H](CSSC[C@H](NC1=O)C(=O)N[C@@H](CCCCN)C(=O)N[C@@H](CC(N)=O)C(=O)NCC(=O)N[C@@H](CCCCN)C(=O)N[C@@H](CCCNC(=N)N)C(=O)NCC(=O)N3)NC(=O)[C@H](CCCNC(=N)N)NC(=O)[C@H](CO)NC(=O)[C@H](Cc1cnc[nH]1)NC(=O)[C@H](CC(=O)O)NC(=O)[C@H](CCCNC(=N)N)NC2=O", "values": [
      {"measurement": "IC50", "setting": "human NaV1.1", "result": 59, "unit": "nM"},
      {"measurement": "IC50", "setting": "human NaV1.2", "result": 79, "unit": "nM"},
      {"measurement": "IC50", "setting": "human NaV1.4", "result": 11, "unit": "nM"},
      {"measurement": "IC50", "setting": "human NaV1.5; read-out: Potency (IC50) at NaV1.5, HEK293 cells, hNaV1.5 α + β1, QPatch16 II whole-cell patch-clamp, holding −90 mV, 50-ms pulse to −20 mV, 0.05 Hz, 5-min incubation per concentration, mean ± SEM", "result": "> 10000", "unit": "nM"},
      {"measurement": "Activity at hNaV1.5, in words", "setting": "human NaV1.5; tested up to 10 µM", "result": "inactive"},
      {"measurement": "IC50", "setting": "human NaV1.7", "result": 55, "unit": "nM"}
    ]},
    {"smiles": "CC(C)[C@H](NC(=O)[C@@H]1CCCN1C(=O)[C@@H](N)CCCNC(=N)N)C(=O)N[C@H]1CSSC[C@@H]2NC(=O)[C@H](Cc3c[nH]c4ccccc34)NC(=O)[C@H](CCCNC(=N)N)NC(=O)[C@H](CO)NC(=O)[C@H](CO)NC(=O)[C@@H]3CSSC[C@@H](C(N)=O)NC(=O)[C@H](CSSC[C@H](NC1=O)C(=O)N[C@@H]([C@@H](C)O)C(=O)NCC(=O)N[C@@H](CCCCN)C(=O)NCC(=O)N[C@@H](CCCCN)C(=O)N[C@@H](CCCNC(=N)N)C(=O)NCC(=O)N3)NC(=O)[C@H](CCCNC(=N)N)NC(=O)[C@H](CO)NC(=O)[C@H](Cc1c[nH]cn1)NC(=O)[C@H](CC(=O)O)NC(=O)[C@H](CCCNC(=N)N)NC2=O", "values": [
      {"measurement": "IC50", "setting": "human NaV1.1", "result": 96, "unit": "nM"},
      {"measurement": "IC50", "setting": "human NaV1.2", "result": 587, "unit": "nM"},
      {"measurement": "IC50", "setting": "human NaV1.4", "result": 26, "unit": "nM"},
      {"measurement": "IC50", "setting": "human NaV1.7", "result": 137, "unit": "nM"}
    ]}
  ]
}
